Pooled drug test results. Numbers come from NIAID ChemDB, via PubChem.

All rows: whole-cell or culture tests; organism: Mycobacterium smegmatis; endpoint: inhibition

Inhibition is in % at the dose shown (toxicity tests: loss of growth or viability). Blank or dashed fields: not listed here. Lines come from different laboratories, so protocols vary.

{"structure": "CCC(C)NCCNC(C)C", "strain or isolate": "ATCC 607", "dose": "30 µg/mL", "value": "100%"}
{"structure": "C=C/C(C)=C/[C@@]1(C)SC(=O)C(C)=C1O", "strain or isolate": "mc2155", "dose": "75 µg/mL", "value": "86%"}
{"structure": "Cc1nc(-c2ccc(Cl)cc2)sc1-c1cn2cc(Cl)ccc2n1", "read by": "broth dilution / absorbance", "strain or isolate": "mc2155", "dose": "30 µM", "value": "1.8%"}
{"structure": "Cc1c(C(=O)O)nn(-c2ccccc2)c1-c1ccc(Cl)cc1", "read by": "agar", "strain or isolate": "mc2155", "dose": "30 µM", "value": "17.7%"}
{"structure": "Cc1nc(-c2ccc(Cl)cc2)sc1-c1cn2cc(Br)ccc2n1", "read by": "broth dilution / absorbance", "strain or isolate": "mc2155", "dose": "30 µM", "value": "4.4%"}
{"structure": "CC(C)N(CCN(C(C)C)C(C)C)C(C)C", "strain or isolate": "ATCC 607", "dose": "1000 µg/mL", "value": "0%"}
{"structure": "Cc1ccc(-c2nc(C)c(-c3cn4cc(Cl)ccc4n3)s2)cc1", "read by": "broth dilution / absorbance", "strain or isolate": "mc2155", "dose": "30 µM", "value": "4.4%"}
{"structure": "N#Cc1c(NC(=O)c2ccc(Cl)cc2)oc(-c2ccccc2)c1-c1ccccc1", "read by": "resazurin", "dose": "50 µg/mL", "value": "25%"}
{"structure": "Cc1c(C(=O)NNC(=O)c2ccncc2)nn(-c2ccc(Cl)cc2Cl)c1-c1ccc(Cl)cc1", "read by": "agar", "strain or isolate": "mc2155", "dose": "30 µM", "value": "19.21%"}
{"structure": "CCCCCC(C)NCCNC(C)CCCCC", "strain or isolate": "ATCC 607", "dose": "30 µg/mL", "value": "100%"}
{"structure": "Cc1nc(-c2ccccc2)sc1-c1cn2cc(Br)ccc2n1", "read by": "broth dilution / absorbance", "strain or isolate": "mc2155", "dose": "30 µM", "value": "55.6%"}
{"structure": "Cc1c(C(=O)O)nn(-c2ccc(Cl)cc2Cl)c1-c1ccccc1", "read by": "agar", "strain or isolate": "mc2155", "dose": "30 µM", "value": "15.73%"}
{"structure": "Cc1ccc(-c2nc(C)c(-c3cn4ccccc4n3)s2)cc1", "read by": "broth dilution / absorbance", "strain or isolate": "mc2155", "dose": "30 µM", "value": "12.3%"}
{"structure": "CCOC(=O)c1nn(-c2ccc(Cl)cc2Cl)c(-c2ccc(Cl)cc2)c1C", "read by": "agar", "strain or isolate": "mc2155", "dose": "30 µM", "value": "14.07%"}
{"structure": "CCCCNCCNCCCC", "strain or isolate": "ATCC 607", "dose": "250 µg/mL", "value": "0%"}
{"structure": "Cc1c(C(=O)NN2CCCCC2)nn(-c2ccc(Cl)cc2Cl)c1-c1ccccc1", "read by": "agar", "strain or isolate": "mc2155", "dose": "30 µM", "value": "32.37%"}
{"structure": "CC(C)(C)NCCNC(C)(C)C", "strain or isolate": "ATCC 607", "dose": "500 µg/mL", "value": "100%"}
{"structure": "O=C1NC(=S)S/C1=C/c1ccc(-c2cccc(C(F)(F)F)c2)o1", "read by": "broth dilution / turbidity", "dose": "4 µM", "value": "98%"}

A second listing of 2 rows from above:

structure | read by | strain or isolate | dose | value
Cc1nc(-c2ccc(Cl)cc2)sc1-c1cn2cc(Br)ccc2n1 | broth dilution / absorbance | mc2155 | 30 µM | 4.4%
CCCCNCCNCCCC |  | ATCC 607 | 250 µg/mL | 0%